Pooled drug test results. Numbers come from NIAID ChemDB, via PubChem.

All rows: whole-cell or culture tests; agent: Herpes simplex virus 1

ECn: concentration that inhibits the pathogen or its effect by n%. Blank or dashed fields: not listed here. Rows are shuffled and stem from different studies.

SMILES | method | cells | read-out | mutations | strain or isolate | value
O=c1[nH]c(=O)n([C@H]2C[C@H](O)[C@@H](CO)O2)cc1/C=C/Br | virus yield | PRK | EC99 |  | KOS | 0.008 µg/mL
Nc1nc2c(ncn2COCCO)c(=O)[nH]1 | plaque count | VERO | EC50 |  | TK- | >30 µg/mL
Nc1ncnc2c1ncn2[C@@H]1C=C(CO)[C@@H](O)[C@@H]1O | cytopathic effect | PRK | EC50 |  | KOS | >400 µg/mL
NC1=NC2C(C=CN2CC(CO)CCO)C(=O)N1 | cytopathic effect | VERO | EC50 |  | KOS | 3.3 µg/mL
CCc1cn([C@@H]2O[C@H](CO)[C@@H](O)[C@@H]2F)c(=O)[nH]c1=O | plaque count | CCRF-HSB-2 | EC50 |  | VR-3 | 0.02 µM
CCCCC/C=C\C/C=C\CCCCCCCC(=O)OCC(CO[C@@H]1O[C@H](CO)[C@@H](O)[C@H](O)[C@H]1O)OC(=O)CCCCCCC/C=C\C/C=C\CCCCC | plaque count | VERO | EC50 |  | KOS | 50 µg/mL
CC(=O)Nc1cn([C@H]2C[C@H](OC(C)=O)[C@@H](COC(C)=O)O2)c(=O)[nH]c1=O |  | GMK | EC50 |  |  | >400 µg/mL
CCCCCCCCCCCCCCCCCCCCCC(=O)OC(COC(=O)CCCCCCCCCCCCCCCCC)CO[C@@H]1O[C@H](CO)[C@@H](O)[C@H](O)[C@H]1O | plaque count | VERO | EC50 |  | KOS | >50 µg/mL
CCCCCCCCCCCCO[C@H]1O[C@H](COP(=O)(O)C(=O)O)[C@@H](O)[C@H](O)[C@H]1O |  | HFF | EC50 |  | R39 | 144 µM
O=c1[nH]c(=O)n([C@@H]2O[C@H](CO)[C@@H](O)[C@@H]2O)cc1I | plaque count | CCRF-HSB-2 | EC50 |  | VR-3 | 23.5 µM
Nc1nc2c(ncn2CCC(O)CO)c(=O)[nH]1 | plaque count | VERO | EC50 |  | C42 | 6 µM
O=c1[nH]c(=O)n([C@@H]2OC3COP(=O)(O)OC3[C@H]2O)cc1I | cytopathic effect | PRK | EC50 |  | McIntyre | 20 µg/mL
O=c1[nH]c(=O)n([C@@H]2O[C@H](CO)[C@@H](O)[C@@H]2O)cc1/C=C/Cl | plaque count | CCRF-HSB-2 | EC50 |  | VR-3 | 0.085 µM
CCCCCCCCCCCC(=O)OCC(CO[C@@H]1O[C@H](CO)[C@H](O)[C@H](O)[C@H]1O)OC(=O)CCCCCCCCCCC | plaque count | VERO | EC50 |  | KOS | <50 µg/mL
O=c1[nH]c(=O)n([C@@H]2O[C@H](CO)[C@@H](O)[C@@H]2F)cc1I | plaque count | CCRF-HSB-2 | EC50 |  | VR-3 | 0.073 µM
Nc1nc2c(ncn2CCC(CO)CO)c(=O)[nH]1 | cytopathic effect | VERO | EC50 |  | TK- | >100 µg/mL
Nc1ncnc2c1ncn2C[C@H](O)CO | cytopathic effect | PRK | EC50 |  | KOS | >400 µg/mL
COc1cc2oc(-c3ccccc3)cc(=O)c2c(OC)c1OC | plaque count | VERO | EC50 |  | HF | 3.2 µg/mL
Cc1cc([C@@H](O)[C@@H](O)CO)co1 | plaque count | VERO | EC50 |  | MFPT-resistant-1 | 170 µM
O=C(O)P(=O)(O)O |  | HFF | EC50 |  | R39 | 222 µM
Nc1nc(OCC2CC2)c2ncn(/C=C3/C[C@@H]3CO)c2n1 | cytopathic effect | HFF | EC50 |  |  | 6.3 µM
Cc1cn([C@@H]2O[C@H](CO)[C@@H](O)[C@@H]2O)c(=O)[nH]c1=O | plaque count | CCRF-HSB-2 | EC50 |  | VR-3 | 1.78 µM
Cc1cn([C@H]2CC[C@@H](OCC(=O)O)C2)c(=O)[nH]c1=O | cytopathic effect | HEL | EC50 |  | KOS | >250 µM
Nc1nc(N)c2ncn([C@@H]3C=C[C@H](CO)[C@@H](O)C3)c2n1 | cytopathic effect | HEL | EC50 |  |  | 0.38 µg/mL
CCCCCOc1nc(N)nc2c1ncn2/C=C1/C[C@@H]1CO | cytopathic effect | HFF | EC50 |  |  | >329.6 µM
CCCCCCCC/C=C/CCCCCCCCO[C@H]1O[C@H](COP(=O)(O)C(=O)O)[C@@H](O)[C@H](O)[C@H]1O |  | HFF | EC50 |  | R39 | 35 µM
Nc1ncnc2c1ncn2C[C@@H](CO)OCP(=O)(O)O | cytopathic effect | ESM | EC50 |  | KOS | 0.2 µg/mL
Cc1cccc(C)c1N(CC(=O)Nc1ccc(-c2ncon2)cc1)C(=O)C1CCS(=O)(=O)CC1 | plaque count | HEF | EC50 |  | 1 (KOS) | 0.036 µM
C#CCNc1nc(N)nc2c1ncn2/C=C1/C[C@@H]1CO | cytopathic effect | HFF | EC50 |  |  | >370 µM
Nc1nccc2c1ncn2[C@@H]1C[C@H](CO)[C@@H](O)[C@H]1O | cytopathic effect | PRK | EC50 |  | KOS | ≥200 µg/mL
Nc1nc2c(ncn2[C@@H]2C[C@H](CO)[C@H]2CO)c(=O)[nH]1 | cytopathic effect | VERO | EC50 |  |  | 1.8 µg/mL
CCCCCCCC/C=C\CCCCCCCCO[C@H]1O[C@H](COP(=O)(O)C(=O)O)[C@@H](O)[C@H](O)[C@H]1O |  | HFF | EC50 |  | R39 | 36 µM
Nc1nc2c(ncn2C[C@]2(CO)C[C@H]2CO)c(=O)[nH]1 |  |  | EC50 |  | OST (TK-) | 137 µg/mL
CCCc1cn([C@H]2C[C@H](O)[C@@H](COP(=O)(O)O)O2)c(=O)[nH]c1=O | cytopathic effect | PRK | EC50 |  | McIntyre | 2.6 µg/mL
OC[C@H]1O[C@@H](c2cc(Br)nc3cc(Cl)c(Cl)cc23)C(O)C1O | virus yield | HFF | EC50 |  |  | <37 µM
O=C(O)C(O[C@@H]1CC[C@H](n2cc(F)c(=O)[nH]c2=O)C1)P(=O)(O)O | cytopathic effect | HEL | EC50 | TK-deficient acyclovir-resistant | KOS | >250 µM
Nc1nc2c(ncn2COCCO)c(=O)[nH]1 | plaque count | HEL | EC50 |  | VR/TK- | 444 µM
CCCOc1nc(N)nc2c1ncn2/C=C1/C[C@@H]1CO | cytopathic effect | HFF | EC50 |  |  | 42.5 µM
Nc1ccn(C[C@@H](CO)OCP(=O)(O)O)c(=O)n1 | cytopathic effect | HEL | EC50 |  | HU-5 | 3.32 µM
NC1=NC2C(C=CN2CC(CO)CCO)C(=O)N1 |  |  | EC50 |  | OST (TK-) | >250 µg/mL
CCCCCSc1nc(N)nc2c1ncn2/C=C1/C[C@@H]1CO | cytopathic effect | HFF | EC50 |  |  | 49.2 µM
Nc1ncnc2c1ncn2[C@@H]1C=C(CO)[C@@H](O)C1 | cytopathic effect | PRK | EC50 |  | KOS | 100 µg/mL
CC/C=C/C/C=C/C/C=C/CCCCCCCC(=O)OC[C@H](CO[C@@H]1O[C@H](CO)[C@@H](O)[C@H](O)[C@H]1O)OC(=O)CCCCCCC/C=C/C/C=C/C/C=C/CC | plaque count | VERO | EC50 |  | KOS | 12.5 µg/mL
O=C(NCc1ccc(Cl)cc1)c1cn2c3c(cc(CN4CCOCC4)cc3c1=O)OC(c1cccnc1)C2 | plaque count | HFF | EC50 |  | B-2006 (acyclovir-resistant) | 12 µM
Nc1nc2c(ncn2COC(CO)CO)c(=O)[nH]1 | plaque count |  | EC50 |  | KOS | 0.05 µM
Nc1nc2c(ncn2COCCP(=O)(N2CCOCC2)N2CCOCC2)c(=O)[nH]1 | cytopathic effect | VERO E6 | EC50 |  | L2 | >500 µM
CCc1cn([C@H]2C[C@H](O)[C@@H](CO)O2)c(=O)[nH]c1=O | cytopathic effect | PRK | EC50 |  | KOS | 2 µg/mL
Cn1cc(C(=O)NCc2ccc(Cl)cc2)c(=O)c2cc(CN3CCOCC3)ccc21 | plaque count | HFF | EC50 |  | L6010381 | 3.3 µM
CCCCCCCC/C=C/CCCCCCCC(=O)OCC(CO)OCn1cnc2c(=O)[nH]c(N)nc21 | cytopathic effect | HEL | EC50 |  | HU-5 | 0.0005 µM
CC(C)c1ccc(-c2cc(-c3cn([C@H]4CC[C@H](O)[C@@H](CO)O4)c(=O)[nH]c3=O)on2)cc1 |  |  | EC50 |  |  | 0.09 µg/mL
O=C(O)CP(=O)(O)O | plaque count | HEL | EC50 |  | VR-3 | 65 µM
Nc1ncnc2c1c(Cl)cn2COC(CO)CO | virus yield | HFF | EC50 |  |  | <22 µM
C/C=C/c1cn([C@H]2C[C@H](O)[C@@H](CO)O2)c(=O)[nH]c1=O | virus yield | PRK | EC99 |  | KOS | 0.15 µg/mL
CNc1cn([C@H]2C[C@H](O)[C@@H](CO)O2)c(=O)[nH]c1=O |  | GMK | EC50 |  |  | 2.5 µg/mL
O=C(O)P(=O)(O)O | cytopathic effect | HEL | EC50 |  | HU-10 | >667 µM
O=C(O)P(=O)(O)O | plaque count | RK-13 | EC50 |  | PFA-resistant | 573 µM
CCCCCCCCCCCCCCCCCC(=O)OCC(CO[C@@H]1O[C@H](CO)[C@@H](O)[C@H](O)[C@H]1O)OC(=O)CCCCCCCCCCCCCCCCC | plaque count | VERO | EC50 |  | KOS | >50 µg/mL
Cc1cn([C@@]23C[C@H](O)[C@@H](CO)[C@@H]2C3)c(=O)[nH]c1=O | plaque count | HFF | EC50 |  |  | >20 µg/mL
OCC(CO)OCn1cc(I)c2c(NO)ncnc21 | virus yield | HFF | EC90 |  |  | >100 µM
CCCCC/C=C\C/C=C\CCCCCCCC(=O)OCC(CO[C@@H]1O[C@H](CO)[C@H](O)[C@H](O)[C@H]1O)OC(=O)CCCCCCC/C=C\C/C=C\CCCCC | plaque count | VERO | EC50 |  | KOS | <50 µg/mL
CC1(C)C=C2[C@H]3CC[C@@H]4[C@@]5(C)CCC(=O)C(C)(C)[C@@H]5CC[C@@]4(C)[C@]3(C)CC[C@@]2(C(=O)O)CC1 | plaque count | VERO | EC50 |  | 7401H (phosphonoacetic acid-resistant) | 1.6 µg/mL
CCCCCCCCCCCCCCO[C@H]1O[C@H](CO)[C@@H](O)[C@H](O)[C@H]1O |  | HFF | EC50 |  | R39 | 72 µM

A second listing of 5 rows from above:

SMILES | method | cells | read-out | mutations | strain or isolate | value
O=C(NCc1ccc(Cl)cc1)c1cn2c3c(cc(CN4CCOCC4)cc3c1=O)OC(c1cccnc1)C2 | plaque count | HFF | EC50 |  | B-2006 (acyclovir-resistant) | 12 µM
O=c1[nH]c(=O)n([C@H]2C[C@H](O)[C@@H](CO)O2)cc1/C=C/Br | virus yield | PRK | EC99 |  | KOS | 0.008 µg/mL
Nc1ccn(C[C@@H](CO)OCP(=O)(O)O)c(=O)n1 | cytopathic effect | HEL | EC50 |  | HU-5 | 3.32 µM
CC/C=C/C/C=C/C/C=C/CCCCCCCC(=O)OC[C@H](CO[C@@H]1O[C@H](CO)[C@@H](O)[C@H](O)[C@H]1O)OC(=O)CCCCCCC/C=C/C/C=C/C/C=C/CC | plaque count | VERO | EC50 |  | KOS | 12.5 µg/mL
O=c1[nH]c(=O)n([C@@H]2O[C@H](CO)[C@@H](O)[C@@H]2O)cc1I | plaque count | CCRF-HSB-2 | EC50 |  | VR-3 | 23.5 µM